The results in this text go back to publication PMC7493962, “Structure-based inhibitors targeting the alpha-helical domain of the Spiroplasma melliferum histone-like HU protein” (Scientific Reports, 2020).

Series [1] deals with HUMgal (Mycoplasma gallisepticum). Put plainly: EMSA. The following applies: no BDF inhibitor; EMSA: 20 mM Tris-HCl pH 8.0, 150 mM NaCl, 7% glycerol, 10 nM DNA, 10 min, temperature not stated; recombinant protein; label: 5'-HEX on strand 1. A general note: Mobility shift assays separate free from complexed probe on a gel.
Series [2] deals with HUSpm_K35T (Spiroplasma melliferum). Kind of series: EMSA. The following applies: no BDF4 inhibitor; EMSA: 20 mM Tris-HCl pH 8.0, 150 mM NaCl, 7% glycerol, 10 nM DNA, 10 min, temperature not stated; recombinant protein; label: 5'-HEX on strand 1.
Series [3] deals with HUSpm (Spiroplasma melliferum). Kind of series: NMR CSP/CIP. The following applies: NMR: 50 mM sodium phosphate pH 7.2, 0.1 mM NaN3, 30 C; recombinant protein.

For at least one entry, the source does not settle the construct or the ends of the probe. For part of these data: At least one verdict was read from the data and is not stated in words by the source.

Consider “AGTCTAGAGTGCAAGTTGAGTCCTT / AAGGACTCAACTGCACTCTAGACT [DS24a (24a)]”, for which the binding result in series [1] and in series [2] was “binds” throughout. With AGTCTAGAGTGCAG (double strand) [DS14], in series [3], the binding result is listed as “binds”.
